The values that follow are results of earlier work, collected in paper PMC8611036, “An integrated method for optimized identification of effective natural inhibitors against SARS-CoV-2 3CLpro” (Scientific Reports, 2021).

For orientation: pIC50 means the IC50 on a negative log10 scale, so that one unit is a factor of ten.

The target of the series is SARS-CoV-2 3CLpro (Severe acute respiratory syndrome coronavirus 2, UniProt P0DTD1). As to conditions: cited from earlier work.
[1] abbreviates: from literature IC50, ref Liu, Pei et al. European journal of medicinal chemistry vol. 206 (2020): 112702.
The mark [2] stands for this setting: test set (SARS-CoV-2 3CLpro inhibitors), collected from literature.

Structures are written as SMILES. Like-named read-outs stand apart in the source and are kept apart here.

As to `NC(=O)c1ccc2c(c1)C(=O)C(=O)N2Cc1ccc2cc(Br)ccc2c1`, under setting [1], the negative-log IC50 (pIC50) is 7.3279.

For the molecule `NC(=O)c1ccc2c(c1)C(=O)C(=O)N2Cc1ccc2ccccc2c1`, under setting [1], the pIC50 was 7.347.

On to `NC(=O)c1ccc2c(c1)C(=O)C(=O)N2Cc1ccc2cc(-c3ccccc3)ccc2c1`, for which the pIC50 by setting is: under setting [1], 4.6038; under setting [2], 4.6038.

As for `NC(=O)Cc1ccc2c(c1)C(=O)C(=O)N2Cc1ccc2ccccc2c1`, the pIC50 under setting [1] is recorded as 4.407.

Take `O=C(ON1C(=O)CCC1=O)c1ccc2c(c1)C(=O)C(=O)N2Cc1ccccc1`: the pIC50 under setting [1] is recorded as 4.81.

As to `CCCCN1C(=O)C(=O)c2cc(C(N)=O)ccc21`, the negative logarithm of the IC50 (pIC50) is, setting by setting: under setting [1], 4.75; under setting [2], 4.75.

With `CCCCN1C(=O)C(=O)c2cc(I)ccc21`, under setting [1], the pIC50 was 4.379.
